Where only a bound is given, the exact number is not on record here.

The species named for one experiment is Cricetulus griseus. The experiment can be described thus: Evaluated for hypersensitivity factor (HF) (HF = IC50 AA8 / IC50 UV-4) values are intra experiment ratios. In kind it is functional.
The nature of experiment [1]: Evaluated for hypersensitivity factor for (HF = IC50 AA8 / IC50 UV-4 ) in hypoxic conditions using N2 (*=data unreliable.).
Experiment [2] can be described thus: Evaluated for ratio of CT10 value. (CT10 = aerobic CT10 / hypoxic CT10).

For the molecule `O=[N+]([O-])c1cccc(N(CCCl)CCCl)c1`, the Ratio (in the experiment filed under Cricetulus griseus; in experiment [1]) was over 1 each time.

On to `O=Nc1ccc(N(CCCl)CCCl)cc1`, for which the Ratio in the experiment listed under Cricetulus griseus was found to be 8; in experiment [1], 19.

For the molecule `COc1ccc(N(CCCl)CCCl)cc1`, the Ratio in the experiment filed under Cricetulus griseus is 42; in experiment [2] it was 1.4.

Regarding `BrCCN(CCBr)c1ccccc1`, in the experiment listed under Cricetulus griseus, the Ratio was found to be 41.

Regarding `COc1cccc(N(CCCl)CCCl)c1`, in the experiment filed under Cricetulus griseus, the Ratio is 42.

With `O=[N+]([O-])c1ccc(N(CCBr)CCBr)cc1`, the Ratio in the experiment listed under Cricetulus griseus was over 1.

Take `Cc1ccc(N(CCCl)CCCl)cc1`: the Ratio was determined as 46 in the experiment filed under Cricetulus griseus and 1.9 in experiment [2].

`CS(=O)(=O)c1cccc(N(CCCl)CCCl)c1`: in the experiment filed under Cricetulus griseus, the Ratio was found to be 52.

On to `Nc1ccccc1N(CCCl)CCCl`, for which, in experiment [1], the Ratio is 28.

On to `O=[N+]([O-])c1ccccc1N(CCCl)CCCl`, for which, in experiment [1], the Ratio is 64.

In the case of `ICCN(CCI)c1ccccc1`, the Ratio in the experiment listed under Cricetulus griseus is 42.

As to `Nc1cccc(N(CCCl)CCCl)c1`, the Ratio turned out to be 18 in the experiment filed under Cricetulus griseus, 1.18 in experiment [2] and 16 in experiment [1].

With `CSc1ccc(N(CCCl)CCCl)cc1`, the Ratio in experiment [2] worked out at 1.2.

Regarding `O=[N+]([O-])c1ccc(N(CCI)CCI)cc1`, the Ratio in the experiment listed under Cricetulus griseus is over 1.

Consider `O=[N+]([O-])c1ccc(N(CCCl)CCCl)cc1`, for which the figures for the Ratio (in the experiment filed under Cricetulus griseus; in experiment [2]; in experiment [1]) were over 5, 1.7 and over 5, respectively.

For `CS(=O)(=O)c1ccc(N(CCCl)CCCl)cc1`, the figures for the Ratio (in the experiment filed under Cricetulus griseus; in experiment [2]) were 3.5 and 0.84, respectively.

With `CN(C)C(=O)c1ccc(N(CCCl)CCCl)cc1`, in the experiment filed under Cricetulus griseus, the Ratio worked out at 30.

Take `Nc1ccc(N(CCCl)CCCl)cc1`: the Ratio in the experiment listed under Cricetulus griseus came to 25; in experiment [2] it was 1.27.

In the case of `CN(C)C(=O)c1cccc(N(CCCl)CCCl)c1`, the Ratio in the experiment listed under Cricetulus griseus was over 20.

These data come from ChEMBL document CHEMBL1124922 (J Med Chem, 1990).
